Sequence variants of PSTVd stem 3 after infection

The pool varies stem 3 of the PSTVd intermediate strain in the pattern GUGGUUCCGNANNCNN; wild type is GUGGUUCCGGAACCGC (upper and lower strand joined, each 5' to 3', the first 8 letters being the upper strand).

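Three N. benthamiana plants were inoculated with the whole mutant pool. Samples came from the inoculated region at 5 days, the leaf margin at 10 and upper systemic leaves at 12.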

Values are reads per thousand in the sample; higher means more abundant, 0 means not found. Each value is the mean of three plants. "Pool" is the share in the plasmid pool used as inoculum, on the same scale. The inoculated region was read from the minus strand, the other sites from the plus strand. Sequences that differ at fixed positions probably stem from PCR or sequencing errors, and defective variants can be carried along by functional ones.

For AUGGUUCCGAAAUCCA (pool 0.0154) the result was inoculated region 0; leaf margin 0; systemic leaves 0.
For GUGGGUCCGAAGCCAC (pool 0.0154) the result was inoculated region 0; leaf margin 0; systemic leaves 0.00811.
For GUGGGUCCGCAACCAC (pool 0.0154) the result was inoculated region 0; leaf margin 0; systemic leaves 0.
For GUGGGUCCGGAAGCCG (pool 0.0154) the result was inoculated region 0; leaf margin 0; systemic leaves 0.
For GUGGGUCCGGACUCUC (pool 0.0154) the result was inoculated region 0; leaf margin 0.0120; systemic leaves 0.
For GUGGGUCCGUACGCCA (pool 0.0154) the result was inoculated region 0; leaf margin 0; systemic leaves 0.
For GUGGUUCAGUAAGCCU (pool 0.0308) the result was inoculated region 0; leaf margin 0; systemic leaves 0.
For GUGGUUCCGAACACAG (pool 1.35) the result was inoculated region 1.12; leaf margin 0.0332; systemic leaves 0.00811.
For GUGGUUCCGAACCCAU (pool 0.939) the result was inoculated region 0.743; leaf margin 0.0120; systemic leaves 0.
For GUGGUUCCGAAGUCUC (pool 0.985) the result was inoculated region 1.13; leaf margin 1.18; systemic leaves 1.24.
For GUGGUUCCGAAUUCAC (pool 1.22) the result was inoculated region 0.775; leaf margin 0.985; systemic leaves 1.01.
For GUGGUUCCGAAUUCCU (pool 0.631) the result was inoculated region 0.738; leaf margin 0.425; systemic leaves 0.
For GUGGUUCCGCAACCCC (pool 0.754) the result was inoculated region 0.331; leaf margin 0.0106; systemic leaves 0.
For GUGGUUCCGCAACCUG (pool 0.908) the result was inoculated region 0.382; leaf margin 0; systemic leaves 0.
For GUGGUUCCGCAAGCAG (pool 0.723) the result was inoculated region 0.321; leaf margin 0.0106; systemic leaves 0.
For GUGGUUCCGCAAGCAU (pool 0.723) the result was inoculated region 0.766; leaf margin 0.0963; systemic leaves 0.
For GUGGUUCCGCACACGU (pool 0.831) the result was inoculated region 0.269; leaf margin 0.0318; systemic leaves 0.
For GUGGUUCCGCACUCGA (pool 1.09) the result was inoculated region 0.233; leaf margin 0.0120; systemic leaves 0.
For GUGGUUCCGCAGGCUU (pool 0.831) the result was inoculated region 0.853; leaf margin 0.0120; systemic leaves 0.
For GUGGUUCCGGAAAGUU (pool 0.0462) the result was inoculated region 0.0216; leaf margin 0; systemic leaves 0.
For GUGGUUCCGGAAGCCG (pool 0.754) the result was inoculated region 0.262; leaf margin 0.0106; systemic leaves 0.
For GUGGUUCCGGACCCCC (pool 3.48) the result was inoculated region 1.30; leaf margin 0.0106; systemic leaves 0.0870.
For GUGGUUCCGGAGUCGA (pool 0.662) the result was inoculated region 0.680; leaf margin 0.142; systemic leaves 0.
For GUGGUUCCGGAUACCG (pool 0.739) the result was inoculated region 0.333; leaf margin 0; systemic leaves 0.
For GUGGUUCCGGAUCCGC (pool 1.05) the result was inoculated region 0.720; leaf margin 0.531; systemic leaves 0.589.
For GUGGUUCCGGAUUCUA (pool 0.939) the result was inoculated region 0.306; leaf margin 0.0106; systemic leaves 0.
For GUGGUUCCGUAAACAA (pool 0.800) the result was inoculated region 0.284; leaf margin 0.0120; systemic leaves 0.
For GUGGUUCCGUAAACAU (pool 0.800) the result was inoculated region 0.784; leaf margin 0.181; systemic leaves 0.
For GUGGUUCCGUAACCCC (pool 0.754) the result was inoculated region 0.358; leaf margin 0.00944; systemic leaves 0.
For GUGGUUCCGUAAUCAC (pool 1.08) the result was inoculated region 0.945; leaf margin 0.293; systemic leaves 0.0186.
For GUGGUUCCGUACUCCA (pool 0.846) the result was inoculated region 0.274; leaf margin 0.0120; systemic leaves 0.
For GUGGUUCCGUACUCGC (pool 0.769) the result was inoculated region 0.279; leaf margin 0.00944; systemic leaves 0.
For GUGGUUCCGUACUCUU (pool 1.26) the result was inoculated region 0.833; leaf margin 0.0335; systemic leaves 0.0184.
For GUGGUUCCGUAGACAA (pool 0.800) the result was inoculated region 0.797; leaf margin 0.201; systemic leaves 0.
For GUGGUUCCGUAGACCU (pool 0.908) the result was inoculated region 0.862; leaf margin 0.0120; systemic leaves 0.
For GUGGUUCCGUAGUCAA (pool 0.939) the result was inoculated region 0.838; leaf margin 0.443; systemic leaves 0.
For GUGGUUCCGUAGUCCG (pool 0.831) the result was inoculated region 0.796; leaf margin 0; systemic leaves 0.
For GUGGUUCCGUAUACCU (pool 0.785) the result was inoculated region 0.872; leaf margin 0.228; systemic leaves 0.
For GUGGUUCCGUAUGCGU (pool 1.66) the result was inoculated region 0.511; leaf margin 0.303; systemic leaves 0.0311.
For GUGGUUCGGGAUCCGC (pool 0.0154) the result was inoculated region 0; leaf margin 0; systemic leaves 0.

Wild type was 17.3 per thousand in the pool and the most common sequence in every sample (inoculated region 330, 345, 235; leaf margin 794, 766, 816; systemic leaves 830, 792, 869). Samples held 27,691 to 54,225 reads, so the smallest values rest on one or two reads.

Source: Wu et al. 2024 (doi:10.1371/journal.ppat.1012142), supplementary data.